Results of unrelated studies side by side (data: NIAID ChemDB).

All rows: whole-cell or culture tests; species: HIV-1; read by: β-galactosidase; measure: EC50

Neighbouring rows are from separate reports. ECn is the concentration giving n% inhibition of infection, replication or growth. An empty or dashed field is not shown.

compound	mutations	cell line	setting	strain	result
CCn1nc(Cc2ccc(OCC(F)(F)F)cc2)cc1C1CCN(C[C@H]2CN([C@@H](C(=O)O)C(C)(C)C)C[C@@H]2c2cccc(F)c2)CC1		HeLa	50% human serum	BaL	<0.1 µM
COc1cc(/C=C/c2ccc3c(C(=O)O)cc(C(=O)O)c(O)c3n2)cc(O)c1O		HeLaP4			1.6 µM
Cc1cc(Cl)cc(C(=O)c2cc(Cl)ccc2OCC(=O)Nc2ccc(S(N)(=O)=O)cc2C)c1		HeLa + HeLa-MAGI		HXB2	0.0012 µM
Oc1cccc(CN(CCN2CCCCC2)CC2CCCN(C3CCCC3)C2)c1		MAGI		LAI	3 µM
CC[C@H](C)[C@H](C(=O)O)N1C[C@H](CN2CCC(c3cc(Cc4ccc(-c5ccccc5)cc4)nn3CC)CC2)[C@@H](c2cccc(F)c2)C1		HeLa		BaL	<0.0004 µM
O=C([O-])c1cc(COc2ccc(-c3c4nc(c(-c5ccc(OCc6cc(C(=O)[O-])cc(C(=O)[O-])c6)cc5)c5ccc([n-]5)c(-c5ccc(OCc6cc(C(=O)[O-])cc(C(=O)[O-])c6)cc5)c5nc(c(-c6ccc(OCc7cc(C(=O)[O-])cc(C(=O)[O-])c7)cc6)c6ccc3[n-]6)C=C5)C=C4)cc2)cc(C(=O)[O-])c1		MAGI cell		IIIB	0.059 µM
Oc1ccccc1CN(CCN1CCCCC1)CC1CCCN(C2CCCC2)C1		MAGI		BaL	>10 µM
O=C([O-])c1cc(COc2ccc(-c3c4nc(c(-c5ccc(OCc6cc(C(=O)[O-])cc(C(=O)[O-])c6)cc5)c5ccc([nH]5)c(-c5ccc(OCc6cc(C(=O)[O-])cc(C(=O)[O-])c6)cc5)c5nc(c(-c6ccc(OCc7cc(C(=O)[O-])cc(C(=O)[O-])c7)cc6)c6ccc3[nH]6)C=C5)C=C4)cc2)cc(C(=O)[O-])c1		MAGI cell		IIIB	0.21 µM
CC[C@@H](C)[C@H](C(=O)O)N1C[C@H](CN2CCC(c3cc(Cc4ccc(OCC(F)(F)F)cc4)nn3CC)CC2)[C@@H](c2cccc(F)c2)C1		HeLa		BaL	<0.0037 µM
C=CCN(C(=O)OCc1ccc([N+](=O)[O-])cc1)C1CCN(CCC(C)(Cn2cnc3ccccc32)c2ccccc2)CC1		MAGI + MAGI-CCR5		BaL	<1 µM
Cc1cn([C@H]2C=C[C@@H](CO)O2)c(=O)[nH]c1=O	RT-K103N M184V	MAGI (CCR5) + MAGI		NL4-3	0.2 µM
Cc1cc(S(N)(=O)=O)ccc1NC(=O)COc1ccc(Cl)cc1C(=O)c1cc(Cl)cc(Br)c1		HeLa + HeLa-MAGI		HXB2	0.0022 µM
Cc1cn([C@H]2C[C@H](N=[N+]=[N-])[C@@H](CO)O2)c(=O)[nH]c1=O		MAGI			<5 µg/mL
Cc1cc(C#N)cc(C(=O)c2cc(Cl)ccc2OCC(=O)Nc2ccc(S(N)(=O)=O)nc2C)c1		HeLa + HeLa-MAGI		HXB2	0.002 µM
Nc1ncc(CN(CCN2CCCCC2)CC2CCCN(C3CCCC3)C2)cn1		MAGI		LAI	7.8 µM
Cc1cn([C@H]2C[C@H](N=[N+]=[N-])[C@@H](CO)O2)c(=O)[nH]c1=O	M184V (3TC-resistant)	HeLa CD4		NL4.3-XCS	0.021 µM
COC(=O)N[C@H](C(=O)N[C@@H](Cc1ccccc1)[C@@H](O)CN(Cc1ccc(-c2ccccn2)cc1)NC(=O)[C@@H](NC(=O)OC)C(C)(C)C)C(C)(C)C		HeLa		NL4-3 WT 43XCS	0.0022 µM
Cc1cc(N2CCS(=O)CC2)ccc1NC(=O)COc1ccc(Cl)cc1C(=O)c1ccccc1		HeLa + HeLa-MAGI		HXB2	0.017 µM
O=C(O)/C=C/c1ccc[c]([Sb](=[O])([OH])[OH])c1		MAGI		NL4-3	0.64 µM
Cc1cc(S(N)(=O)=O)ccc1NC(=O)COc1ccc(Cl)cc1C(=O)c1cc(Br)cc(C(F)(F)F)c1		HeLa + HeLa-MAGI		HXB2	0.03 µM
C[C@H]1CN2CCC[C@H]3CCCCC[C@@H]4C(=O)[C@@H](C)CN5CCC[C@@H](CCCCC[C@H](C1=O)[C@@H]32)[C@H]45		MAGI		MN	46.8 µM
O=C(NCc1ccc(F)cc1)c1nc(N2CCCCS2(=O)=O)c2cccnc2c1O				IIIB	0.0063 µM
CCn1nc(Cc2ccc(OC3CC3)cc2)cc1C1CCN(C[C@H]2CN([C@@H](C(=O)O)C3CCCCC3)C[C@@H]2c2cccc(F)c2)CC1		HeLa	50% human serum	BaL	<0.033 µM
C#C[C@@]1(CO)C=C[C@H](n2cc(C)c(=O)[nH]c2=O)O1		MAGI (CCR5) + MAGI		NL4-3 WT	0.27 µM
Cc1cc(S(N)(=O)=O)ncc1NC(=O)COc1ccc(Cl)cc1C(=O)c1cc(Cl)cc(C#N)c1		HeLa + HeLa-MAGI		HXB2	0.002 µM
CCn1nc(Cc2ccc(OC(F)(F)F)cc2)cc1C1CCN(C[C@H]2CN([C@@H](C(=O)O)C(C)C)C[C@@H]2c2cccc(F)c2)CC1		HeLa		BaL	<0.0037 µM
Cc1nc(S(N)(=O)=O)ccc1NC(=O)COc1ccc(Cl)cc1C(=O)c1cc(Cl)cc(C#N)c1		HeLa + HeLa-MAGI		HXB2	0.001 µM
O=C([O-])c1cc(C(=O)[O-])cc(-c2c3nc(c(-c4cc(C(=O)[O-])cc(C(=O)[O-])c4)c4ccc([n-]4)c(-c4cc(C(=O)[O-])cc(C(=O)[O-])c4)c4nc(c(-c5cc(C(=O)[O-])cc(C(=O)[O-])c5)c5ccc2[n-]5)C=C4)C=C3)c1		MAGI cell		BaL	0.35 µM
CSc1ccccc1NC(=O)CSc1nnnn1-c1ccccc1SC	K103N (NVP)	HeLa CD4		NL4.3-XCS	0.789 µM
CCn1nc(Cc2ccc(O)cc2)cc1C1CCN(C[C@H]2CN([C@@H](C(=O)O)C(C)(C)C)C[C@@H]2c2cccc(F)c2)CC1		HeLa	50% human serum	BaL	<0.011 µM
Cc1cc(S(N)(=O)=O)ccc1NC(=O)COc1ccc(Cl)cc1C(=O)c1cc(Cl)cc(C#N)c1	RT-Y188L	MAGI		NNRTI-resistant (RT Y188L)	0.021 µM
COc1ccc(NC(=O)CSc2nnnn2-c2c(C)cc(C)cc2C)cc1Cl	M184V (3TC-resistant)	HeLa CD4		NL4.3-XCS	0.382 µM
Cc1cc(S(N)(=O)=O)ccc1NC(=O)COc1ccc(Cl)cc1C(=O)c1cc(F)cc(C(F)(F)F)c1	RT-Y181C	HeLa + HeLa-MAGI		HXB2	0.003 µM
N#CC1C=Cc2ccccc2C1C(=O)/C=C/c1ccccc1	M184V (3TC-resistant)	HeLa CD4		NL4.3-XCS	0.138 µM
O=C(O)c1c(Br)c(Br)c(Br)c(Br)c1-c1c2ccc(=O)cc-2oc2cc(O)ccc12		MAGI		NL4-3	41.7 µM